Pooled drug test results. Numbers come from NIAID ChemDB, via PubChem.

All rows: whole-cell or culture tests; agent: Vesicular stomatitis virus; cells: E6SM; read by: cytopathic effect; read-out: EC50

Neighbouring rows are from separate reports. ECn is the concentration giving n% inhibition of infection, replication or growth.

smiles | value
Cc1cn(C2CC(O[N+](=O)[O-])C(CO)O2)c(=O)[nH]c1=O | >400 µg/mL
CCc1cc([C@H]2C[C@H](O)[C@@H](CO)O2)c(F)cc1F | >400 µg/mL
Nc1nc2c(ncn2[C@H]2OC[C@@H](CO)C2O)c(=O)[nH]1 | >400 µg/mL
OC[C@H]1O[C@H](c2cncc(Br)c2)[C@@H](O)[C@@H]1O | ≥100 µg/mL
Cc1nc2ccc(Br)cc2c(=O)n1-c1nnc(-c2cccc(Cl)c2Cl)c(N)n1 | >3.2 µg/mL
O=c1ccn(C2CC(O[N+](=O)[O-])C(CO)O2)c(=O)[nH]1 | >400 µg/mL
CCc1nc(-n2c(C)nc3ccc(Br)cc3c2=O)nc(N)c1-c1ccc(Cl)cc1 | >16 µg/mL
NC(=O)c1cncc([C@H]2O[C@H](CO)[C@H](O)[C@@H]2O)c1 | ≥100 µg/mL
Nc1ncnc2c1ncn2[C@@H]1C=C(CO)[C@@H](O)[C@H]1O | 7 µg/mL
Cc1cn([C@@H]2OC[C@H](CO)[C@H]2O)c(=O)[nH]c1=O | >400 µg/mL
OC[C@H]1O[C@@H](c2cncc(Br)c2)[C@@H](O)[C@H]1O | ≥100 µg/mL
[N-]=[N+]=NC(CBr)c1cc([C@H]2C[C@H](O)[C@@H](CO)O2)c(F)cc1F | >400 µg/mL
N#Cc1cncc([C@@H]2O[C@H](CO)[C@@H](O)[C@@H]2O)c1 | ≥100 µg/mL
Nc1ncnc2c1ncn2[C@H]1OC[C@@H](CO)C1O | >80 µg/mL
NC(=O)c1cncc([C@@H]2O[C@H](CO)[C@@H](O)[C@@H]2O)c1 | ≥100 µg/mL
COc1cc(Cc2cnc(-n3c(-c4ccccc4)nc4ccc(Br)cc4c3=O)nc2N)cc(OC)c1OC | >80 µg/mL

Repeating the final 2 entries:

smiles,value
NC(=O)c1cncc([C@@H]2O[C@H](CO)[C@@H](O)[C@@H]2O)c1,≥100 µg/mL
COc1cc(Cc2cnc(-n3c(-c4ccccc4)nc4ccc(Br)cc4c3=O)nc2N)cc(OC)c1OC,>80 µg/mL